Results: US9909086B2, “Green glycine betaine derivative compounds and compositions containing same” (priority 2012, dated 2018)

What was measured:
[1] = Cleaning performance, time to remove greasy kitchen soil
[2] = Cleaning performance, time to remove interior soil

CCCCCCCC/C=C\CCCCCCCCNC(=O)C[N+](C)(C)C.CS(=O)(=O)[O-] [GB Oleic amide, (Z)-betainyl amino octadec-9-ene methane sulfonate]
Cleaning Performance (time to remove soils), Greasy Kitchen ([1]; surfactant conc. 1 % (w/w)): 15 s
Cleaning Performance (time to remove soils), Greasy Kitchen ([1]; surfactant conc. 3 % (w/w)): 15 s
Cleaning Performance (time to remove soils), Interior ([2]; surfactant conc. 1 % (w/w)): 10 s
Cleaning Performance (time to remove soils), Interior ([2]; surfactant conc. 3 % (w/w)): 10 s

CCCCCCCCCCCCCCCCCCNC(=O)C[N+](C)(C)C.CS(=O)(=O)[O-] [GB Stearic amide, Betainyl amino octadecane methane sulfonate]
Cleaning Performance (time to remove soils), Greasy Kitchen ([1]; surfactant conc. 1 % (w/w)): 10 s
Cleaning Performance (time to remove soils), Greasy Kitchen ([1]; surfactant conc. 3 % (w/w)): 10 s
Cleaning Performance (time to remove soils), Interior ([2]; surfactant conc. 1 % (w/w)): 10 s
Cleaning Performance (time to remove soils), Interior ([2]; surfactant conc. 3 % (w/w)): 10 s
